Laboratory results published in patent US20250026813A1, “Antibodies against sars-cov-2 and uses thereof” (published 2025).
Where a chain is given by its changes, count along the chain named. “And” between values parts separate entries of the source, which are not always exact repeats. Equal entries are not always repeated.

Key:
[1] = target: mutant SARS-CoV-2 spike on pseudovirus (mutant not identified) (SARS-CoV-2); experiment: cell-based or functional assay
[2] = target: SARS-CoV-2 spike protein of the WA-1 strain live virus (carrying D614G) (SARS-CoV-2, UniProt P0DTC2 14-1273); experiment: cell-based or functional assay
[3] = target: SARS-CoV-2 spike protein receptor binding domain (RBD) (SARS-CoV-2, UniProt P0DTC2 319-541); experiment: HT-SPR RBD epitope community assignment (Carterra)
[4] = target: SARS-CoV-2 spike protein receptor binding domain (isolated RBD) (SARS-CoV-2, UniProt P0DTC2 319-541); experiment: SPR (Biacore 8K), IgG1 captured via anti-hFc, RBD as analyte
[5] = target: mutant SARS-CoV-2 spike pseudovirus (mutant not specified); experiment: cell-based or functional assay
[6] = target: mutant (SARS-CoV-2 spike pseudovirus mutant, not defined); experiment: cell-based or functional assay
[7] = target: SARS-CoV-2 spike protein on authentic virus carrying D614G (WA-1 strain) (SARS-CoV-2, UniProt P0DTC2 14-1273); experiment: cell-based or functional assay
[8] = target: SARS-CoV-2 spike protein on authentic virus of the B.1.351 (Beta) strain (SARS-CoV-2); experiment: cell-based or functional assay
[9] = target: SARS-CoV-2 spike receptor binding domain (RBD), antigen of Example 10 (SARS-CoV-2, UniProt P0DTC2 319-541); experiment: HT-SPR (Carterra) epitope binning on RBD
[10] = target: SARS-CoV-2 spike receptor binding domain (Neil King, University of Washington) (SARS-CoV-2, UniProt P0DTC2 328-531); experiment: SPR (Biacore 8K), IgG captured on anti-hFc chip, antigen as analyte, 25 C
[11] = target: SARS-CoV-2 spike protein on live virus SARS-CoV-2 Victoria/01/2020 (SARS-CoV-2, UniProt P0DTC2 14-1273); experiment: cell-based or functional assay

B1: YANG-2301 (antibody, V domains shown)
VH: QVHLIQSGAEVKKPGASVKVSCKVSGYTLIEVSVHWVRQAPGKGLEWMGGFDPEAAETIYAQKFQGRVTMTEDTSTDTAYMDLSSLKSEDSAVYYCAIGPAVTGRNSGEYYYYYGMDVWGQGTTVTVAS
VL: EIVMTQSPATLSVSPGERATLSCRASQSVNSNLAWYQQKPGQAPRLLIYAVSTRATGLPARFSGSGSGTEFTLTISSLQSEDFVVYYCHQYNNWPLTFGGGTKVEIK
PV IC50 against mutant [1]: 0.4 nM

B2: IMPI-032 (antibody, V domains shown)
VH: QVQLQESGPGLVKPSGTLSLTCAVSGGSISSNKWWSWVRQPPGKGLEWIGEIDHSGSTMYNPSLKSRVTISVDKSKNQFSLKLNSVTAADTAVYYCTGEGYNWNYWGQGTRVTVSS
VL: DVVMTQSPLSLPVTLGQTASISCRSSQSLLYTDGNTYLSWFQQRPGQSPRRLIYKVSKWESGVPDRFSGSGSGTDFTLKISRVEAEDVGIYYCMQGTHWPLTFGGGTKVEIK
Live virus WA-1 strain IC50 [2]: 7.52 µg/mL | binding result [3]: no binding

B3: IMPI-032 (antibody, V domains shown)
VH: B2 VH
VL: B2 VL
binding result [4]: no binding (tested: up to 100 nM RBD)

B4: YANG-1118 (antibody, V domains shown)
VH: EVQLVESGGGLVKPGGSLRLSCAASGFTFSSYALNWVRQAPGKGLEWVSSISTGSSYIFYADSVKGRFTISRDNAKHSLSLQMNSLRAEDTAVYYCAKTGDLPFFDYWGQGTLVTVSS
VL: QSALTQPASVSGSPGQSITISCTGTSSDVGRYNYVSWYQQHPGKAPKLMIYEVSNRPSGVSNRFSGSKSGNTASLTISGLQAEDEADYYCISYTSSSTMVFGGGTKLTVL
PV IC50 against mutant [5]: 2.76 nM

B5: YANG-2203 (antibody, V domains shown)
VH: QVQLVQSGAEVKQPGASVKVSCRASGYALTSFYVHWVRQAPGQGLEWMGIIKPSGGDTIYAQNLQGRVTMTRDTSTNTFYVELSSLRSEDTALYYCAISGNTRAFEIWGQGTMVTVSL
VL: QSVLTQPPSVSAAPGQKVTISCSGSSSNIGNNFVSWYQQLPGMVPKLLIYANNKRPSGIPDRFSGSRSGTSATLGITGLQTGDEADYYCGTWDSSRSAVLFGGGTKMTVL
PV IC50 against mutant [6]: 32.5 nM

B6: YANG-2204 (antibody, V domains shown)
VH: QMQLVQSGAEVKKPGASVKFSCKTSGYTFTNYYMVWVRQAPGQGLEWMGIIKPSGGNTIYAQKFQGRVTMTRDTSTNTVYMDLTSLRSEDTAVYYCARTGDRAFDVWGQGTMVTVSS
VL: B5 VL with F33Y, M43T, V44A, A51D, R67K, R96L, S97G, V99G, L100V, M107L
PV IC50 against mutant [6]: 8.83 nM

B7: YANG-2207 (antibody, V domains shown)
VH: B6 VH with F20I, M81L, T84S, D101N, Q109H
VL: B5 VL with L40F, M43T, V44A, A51D, R67K, R96L, S97G, V99G, L100V, M107L
PV IC50 against mutant [1]: 32.3 nM

B8: IMPI-059 (antibody, V domains shown)
VH: EVQLVESGGGLIQPGGSLRLSCAASGFTVSSIYMSWVRQAPGKGLEWVSIIYSRGSTDYADSVKGRFTISRDISKNTLYLQMNSLRAEDTAVYYCARDGTMVRGVHAFDIWGQGTMVTVSS
VL: DIQMTQSPPSLSASIGDRVTITCQASQDISNYLNWYQQKPGKAPKLLIYDASNLETGVPSRFSGSGSGTDFTLTISNLQPEDIVTYYCQQYDNLPSSFGQGTKLEIK
Live virus WA-1 strain IC50 [7]: 0.00032 µg/mL | Live virus B.1.351 strain IC50 [8]: 3.94 µg/mL

B9: IMPI-022 (antibody, V domains shown)
VH: EVQLVESGGGLVQPGRSLRLSCAASGFTFDDYAMHWVRQAPGKGLEWVSGITWNSGSIGYADSVKGRFTISRDNAKNSLYLHMNSLRVEDTALYYCAKDLQGDYYYYGVDVWGQGTTVTVSS
VL: AIQLTQSPSSLSASVGDRVTITCRASQGISSALAWYQQKPGKAPKLLLYDASSLVSGVPSRFSGSRSGTDFTLTISSLQPEDFATYYCQQFISYPLTFGGGTRVEIK
binding result [4]: no binding (tested: up to 100 nM RBD)

B10: YANG-2108 (antibody, V domains shown)
VH: QVQLQESGPGQVKPSGTLSLTCAVSGGSIRSSNWWIWVRQPPGKGLEWIGEIYHGGNTNYSPSLKSRVSISVDKSKNHFSLNLTSVTAADTAVYYCARALYDVGGVFDIWGQGTMVTVSS
VL: QSALTQPASVSGSPGQSITISCTGSSSDVGGYNYVSWYQQHPGKAPKLMIYDVSERPSGVSNRFSGSKSGNTASLTISGLQAEDEGDYYCCSYAANSNVVFGGGTKLSVL
PV IC50 against mutant [6]: 0.23 nM

B11: YANG-1112 (antibody, V domains shown)
VH: QITLKESGPTLVKPTQTLTLTCTFSGFSLSTGGVAVGWIRQPPGKALEWLAIIYWDDDKRYSPSLKSRLTITKDTSKNQVVLTMTNMDPVDTATYYCAHWGKDSFDIWGQGTMVTVSS
VL: SYELTQPPSVSVSPGQTARITCSGDALPRKYAYWYQQKSGQAPVLVIYEDNNRPSGIPERFSGSSSGTTATLTVSGAQVEDEADYYCYSTDTSGYVVFGGGTKLTVL
PV IC50 against mutant [5]: 0.34 nM

B12: YANG-2111 (antibody, V domains shown)
VH: GVQLVESGGGLVQPGRSLRLSCAASGFTFDDYALHWVRQVPGKGLEWVSSISWNSDDLGYADSVEGRFTISRDNAKNSLYLQMSSLRTEDTALYYCVKDTRAHYDILAGYRGLDSWGQGTLVTVSS
VL: DIVMTQSPLSLPVTPGEPASISCRSTQSLLHSNGYNFLDWYLQKPGQSPQLLIYLGSNRASGVPDRFSGSGSGTDFSLKISRVEAEDIGIYYCIQGLQTPITFGQGTRLEIK
PV IC50 against mutant [6]: 1 nM

B13: IMPI-063 (antibody, V domains shown)
VH: EVQLVESGGGVVRPGGSLRLSCAASGFTFDDYGMSWVRQAPGKGLEWVSGIYWNGGSTGYADSVKGRFTISRDNAKNSLYLQMNSLRAEDMALYYCARGVGATDYWGQGTLVTVSS
VL: EIVLTQSPGTLSLSSGERATLACRASESVRGSFLAWYQQKPGQAPRLLIYGASRRATGIPDRFSGSGSGTDFTLTISRLEPEDFAVYYCQQYGNSPMCSFGQGTKLEIK
Live virus WA-1 strain IC50 [7]: 10.4 µg/mL | binding result [9]: no binding

B14: IMPI-063 (antibody, V domains shown)
VH: B13 VH
VL: B13 VL
binding result [10]: no binding (tested: up to 100 nM)

B15: IMPI-063 (antibody, V domains shown)
VH: B13 VH
VL: B13 VL
binding result [4]: no binding (tested: up to 100 nM RBD)

B16: IMPI-017 (antibody, V domains shown)
VH: EVQLVESGGGLIQPGGSLRLSCAAAGLTVSSNYMNWVRQVPGKGLEWVSVIYSGGSTYYADSVKGRFTISRDNSKNTLYLQMNSLRAEDTAVYYCARDLGTLGMDVWGQGTTVTVSS
VL: DIQLTQSPSFLSASVGDRVTITCWASQGISTYLAWYQQKPGKAPKLLIYAASTLQSGVPSRFSGSGSGTEFTLTISSLQPEDFATYYCQQLNSYLPTFGQGTKVEIK
IC50, live virus foci (plaque) reduction neutralisation assay on Vero cells [11]: 49 ng/ml and 326 pM
